# Tested on: PrP
row,Molecule,epitope
1,"scFvW226: scFv: variable heavy and light chain domains of W226 connected by (Gly4Ser)3-linker, C-terminal myc- and his6-tags; SEQ ID NO:6 (protein, C-terminal myc and His6 tags; scFv) scFv: MKYLLPTAAAGLLLLAAQPAMAMAEVQLQQSGAELARPGTSVNLSCKTSGYSFTGYGVSWVKQRIGQGLEWIGEIYPRSGNTYYNEKFKGKATLTADKSSNTAYMELRSLTSEDSAVYFCARWNWERDAMDYWGQGTSVTVSSAKTTPPSDYPLAGGGGSGGGGSGGGGSDIVMTQTPLSLPVSLGDQASISCRSSQSLESSSGYPHLNWYLQKPGQSPQLLIYRVSNRFSGVLDRFSGSGSGTDFTLQISRVEAEDLGVYFCLQITHVPWTFGGGTKLEIKRADAAPTVSAAEEQKLISEEDLEHHHHHH",WEDRYYREN
2,"mAB W226 (antibody, V domains shown) VH: EVQLQQSGAELARPGTSVNLSCKTSGYSFTGYGVSWVKQRIGQGLEWIGEIYPRSGNTYYNEKFKGKATLTADKSSNTAYMELRSLTSEDSAVYFCARWNWERDAMDYWGQGTSVTVSSAKTTPPSDYPLA VL: DIVMTQTPLSLPVSLGDQASISCRSSQSLESSSGYPHLNWYLQKPGQSPQLLIYRVSNRFSGVLDRFSGSGSGTDFTLQISRVEAEDLGVYFCLQITHVPWTFGGGTKLEIKRADAAPTVSAA",WEDRYYREN

# Reference: US8852587B2 (priority 2008, dated 2014)
